For 82 compounds, activity change, negative = inhibition results are on record in PubChem BioAssay AID493005 (National Center for Advancing Translational Sciences (NCATS), 2010).

By UniProt entry, the sequences of proteins in these tests, tags left out.
UniProt Q99816, whole entry: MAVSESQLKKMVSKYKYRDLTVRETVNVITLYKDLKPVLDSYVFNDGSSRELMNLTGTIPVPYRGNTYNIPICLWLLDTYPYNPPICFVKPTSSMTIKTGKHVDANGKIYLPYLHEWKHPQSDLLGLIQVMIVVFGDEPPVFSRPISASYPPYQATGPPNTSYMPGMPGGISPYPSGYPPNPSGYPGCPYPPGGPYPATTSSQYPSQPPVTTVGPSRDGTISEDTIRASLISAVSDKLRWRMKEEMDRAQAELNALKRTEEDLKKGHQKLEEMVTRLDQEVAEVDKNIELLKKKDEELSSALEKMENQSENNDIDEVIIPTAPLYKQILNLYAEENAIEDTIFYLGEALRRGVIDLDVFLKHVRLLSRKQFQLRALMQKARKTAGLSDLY

The entries are a selection whose mix differs from that of the whole data set. Some structures show a salt or complex split into parts, the way the source records it. The source made the active and inactive calls. The call rests on the fitted dose curve; in most records, active means well fitted inhibition curve with a large enough effect in the main read-out, with a control signal flat (not every such curve was filed as active); inconclusive means small, poorly fitted or top-dose-only effect, or effect the other way, or a change in a side signal; inactive means no such curve, though single readings can be large or run the other way.

The test deals with Tumor susceptibility gene 101 protein (Homo sapiens) (UniProt Q99816). Nature of the test: qHTS Assay for Iinhibitors of HIV-1 Budding by Blocking the Interaction of PTAP/TSG101. Further: % of control where 0% means no effect. To be noted: Fluorescence polarization, FITC-PTAP peptide / Tsg101 binding; at 115 µM (top of the series). An excerpt: NIH Molecular Libraries Probe Production Network [MLPCN] NIH Chemical Genomics Center [NCGC] MLPCN Grant: 1 R03 MH087464-01A1 PI Name: Dr. Eric Freed, NCI NCGC Assay Overview: Stages of the HIV-1 replication cycle, specifically virus assembly and release, provide underexploited targets for the development of novel antiviral inhibitors. The late stages of HIV-1 replication are mediated by the Gag precursor protein, Pr55Gag. Expression of Pr55Gag is both necessary and sufficient for the production of virus-like particles from Gag-expressing cells. The Gag protein hijacks key host proteins involved in endocytic machinery of the host cell to promote endosomal processing and viral budding. The budding process requires a direct interaction between a […] (PTAP) motif in the p6 domain of Gag and the cellular endosomal sorting protein known as Tsg101. In this way, the Gag PTAP motif promotes the host cells to recruit viral particles to the plasma membrane where the new viral particles are released, effectively turning the host cells into viral factories. A fluorescence anisotropy assay has been developed to quantitatively measure the PTAP-Tsg101 interaction which can be used to screen for inhibitors of this interaction.
NCGC Assay Protocol Summary: Two uL of the Tsg101 binding domain in buffer (10 mM HEPES pH 7.5; 0.15 M NaCl, 0.01% Tween 20; 3 mM EDTA;0.1 mM TCEP) was dispensed into Greiner black MB 1536-well plates (final concentration 10 uM). Then, 23 nL of compounds or DMSO were delivered to each well using a pin tool. Finally, 2 uL of a FITC-labeled peptide containing the PTAP motif (1) in the same buffer was dispensed (50 nM final concentration) and the binding was allowed to proceed for 20 min. at r.t. Fluorescent polarization was determined using FITC excitation and polarized emission filters on a Perkin Elmer Viewlux. Keywords: Tsg101, PTAP, Gag, HIV, fluorescent polarization, MLSMR, MLPCN, NIH Roadmap, qHTS, NCGC
`COc1cc(OC)cc(C(=O)NCC2(N3CCCCC3)CCCCC2)c1`: the activity change, negative = inhibition is inactive: 0.258%.

As to `CC(=O)N(c1ccccc1)C1CCNCC1`, the activity change, negative = inhibition is inactive: -11.4%.

With `Cc1ccc(NC2(C#N)CCN(Cc3ccccc3)CC2)cc1`, the activity change, negative = inhibition is inactive: 1.61%.

As to `Cc1ccc(C(=O)NCC2(N3CCCCC3)CCCCC2)o1`, the activity change, negative = inhibition was inactive: 0.156%.

In the case of `Fc1ccccc1NC1CCN(Cc2ccccc2)CC1`, the activity change, negative = inhibition is inactive: -4.49%.

As to `Cc1ccccc1NC1(C#N)CCN(Cc2ccccc2)CC1`, the activity change, negative = inhibition was inactive: -3.56%.

On to `CCN1CCC(Nc2cccc(F)c2)CC1`, for which the activity change, negative = inhibition is inactive: -0.839%.

With `O=C(NCC1(N2CCCCC2)CCCCC1)c1ccco1`, the activity change, negative = inhibition was inactive: -2.54%.

With `CN(C)c1ccc(C(=O)NCC2(N3CCCCC3)CCCCC2)cc1`, the activity change, negative = inhibition was inactive: -4.34%.

With `Cn1c(=O)[nH]cc(N(CCCl)CCCl)c1=O`, the activity change, negative = inhibition is inactive: -1.71%.

With `CCOc1ncccc1C(=O)NCC1(N2CCOCC2)CCCCC1`, the activity change, negative = inhibition was inactive: -0.408%.

For the compound `CN1CCC(Nc2ccc(F)c(Cl)c2)CC1`, the activity change, negative = inhibition is inactive: 2.4%.

With `CCCOc1ccc(C(=O)NCC2(N(C)C)CCCCC2)cc1`, the activity change, negative = inhibition is inactive: -6.41%.

Take `CC(C)(C)OC(=O)N1CCC(Nc2ccccc2)CC1`: the activity change, negative = inhibition was inactive: -2.23%.

Take `O=C(O)C1(Nc2ccccc2)CCN(Cc2ccccc2)CC1`: the activity change, negative = inhibition was inactive: -4.3%.

In the case of `CCC(CO)(C(=O)OC1CN2CCC1CC2)c1ccccc1` (configuration not stated), the activity change, negative = inhibition is inactive: -4.22%.

Consider `COc1cccc(C(=O)N(c2cc(C)cc(C)c2)C2CCN(C(=O)OC(C)(C)C)CC2)c1`, for which the activity change, negative = inhibition was inactive: -2.27%.

On to `COc1cc(OC)cc(C(=O)NCC2(N3CCOCC3)CCCCC2)c1`, for which the activity change, negative = inhibition is inactive: -1.43%.

For `CN1CCC(Nc2ccc(Cl)cc2)CC1`, the activity change, negative = inhibition is inactive: -3.85%.

For `O=C(NCC1(N2CCOCC2)CCCCC1)c1cc(Br)ccc1Cl`, the activity change, negative = inhibition is inactive: 2.27%.

For the compound `COc1cc(C(=O)NCC2(N3CCOCC3)CCCCC2)cc(OC)c1C`, the activity change, negative = inhibition is inactive: -1.37%.

Turning to `COc1ccc(C(=O)NCC2(N3CCOCC3)CCCCC2)cc1OC`, the activity change, negative = inhibition was inactive: 2.99%.

Regarding `N/C(=N\O)c1c(N)no[n+]1[O-]`, the activity change, negative = inhibition was inactive: -2.52%.

Regarding `CCOC(=O)N1CCC(Nc2ccc(C)cc2)CC1`, the activity change, negative = inhibition is inactive: 1.09%.

`CCc1cc(C(=O)NCC2(N3CCCCC3)CCCCC2)sc1C`: the activity change, negative = inhibition is inactive: -1.93%.

Turning to `O=C(OC1CN2CCC1CC2)C1c2ccccc2C=Cc2ccccc21` (configuration not stated), the activity change, negative = inhibition is inactive: -0.776%.

Regarding `O=C(O)c1cccc(Nc2c([N+](=O)[O-])cc([N+](=O)[O-])cc2[N+](=O)[O-])c1`, the activity change, negative = inhibition is inactive: -1.73%.

With `CC(C)(C)OC(=O)N1CCC(N(C(=O)c2ccccc2)c2ccc(Cl)cc2)CC1`, the activity change, negative = inhibition was inactive: -3.01%.

Take `N#Cc1ccc(C(=O)NCC2(N3CCCCC3)CCCCC2)cc1`: the activity change, negative = inhibition was inactive: 0.0598%.

With `CCOC(=O)C(CC)C1=NC(C)(C)Cc2ccccc21.O=[N+]([O-])c1cc([N+](=O)[O-])c(O)c([N+](=O)[O-])c1` (configuration not stated), the activity change, negative = inhibition is inactive: -5.34%.

On to `c1ccc(CN2CCC(Nc3ccccc3)CC2)cc1`, for which the activity change, negative = inhibition is inactive: -3.75%.

Take `Cc1cc(N(CCCl)CCCl)ccc1C=O`: the activity change, negative = inhibition was inactive: -2.68%.

On to `CCCN1CCC(Nc2cc(OC)cc(OC)c2)CC1`, for which the activity change, negative = inhibition is inactive: 0.176%.

With `CN(C)C1(CNC(=O)c2cccc(C#N)c2)CCCCC1`, the activity change, negative = inhibition was inactive: -1.3%.

As for `O=C(NCC1(N2CCCCC2)CCCCC1)c1ccc(OC(F)F)cc1`, the activity change, negative = inhibition was inactive: 0.467%.

In the case of `O=C(NCC1(N2CCCCC2)CCCCC1)c1cccc([N+](=O)[O-])c1`, the activity change, negative = inhibition is inactive: -0.906%.

For the compound `CSc1ccc(C(=O)NCC2(N3CCOCC3)CCCCC2)cc1`, the activity change, negative = inhibition is inactive: -8.87%.

Turning to `CCN1CCC(Nc2ccc(Cl)cc2)CC1`, the activity change, negative = inhibition is inactive: 0.343%.

As to `N#CC1(Nc2ccccc2)CCN(CCc2ccccc2)CC1`, the activity change, negative = inhibition is inactive: -1.28%.

Consider `O=C(NCC1(N2CCCCC2)CCCCC1)c1cccc(C(F)(F)F)c1`, for which the activity change, negative = inhibition was inactive: -2.68%.

For the compound `O=[N+]([O-])c1cc([N+](=O)[O-])c(NCC2CCS(=O)(=O)C2)c([N+](=O)[O-])c1` (configuration not stated), the activity change, negative = inhibition is inactive: 0.0863%.

On to `CC(C)c1ccc(C(=O)NCC2(N3CCOCC3)CCCCC2)cc1`, for which the activity change, negative = inhibition was inactive: -0.258%.

On to `COc1ccc(NC2CCN(C(=O)OC(C)(C)C)CC2)cc1`, for which the activity change, negative = inhibition was inactive: -3.68%.

As for `CN1CCN(CCOC(=O)C(O)(c2ccccc2)c2ccccc2)CC1`, the activity change, negative = inhibition was inactive: -4.5%.

As for `O=C(NCC1(N2CCOCC2)CCCCC1)c1cc(=O)[nH]c2ccccc12`, the activity change, negative = inhibition was inactive: -1.23%.

As for `COc1cc(C(=O)NCC2(N3CCCCC3)CCCCC2)ccc1OC(F)F`, the activity change, negative = inhibition was inactive: -0.937%.

As to `COc1ccc(CN(CCCl)CCCl)cc1Cl`, the activity change, negative = inhibition is inactive: -4.17%.

Turning to `CN(C)c1cccc(C(=O)NCC2(N3CCCCC3)CCCCC2)c1`, the activity change, negative = inhibition was inactive: 0.723%.

`O=[N+]([O-])c1cc([N+](=O)[O-])c(OC2CCCCC2O)c([N+](=O)[O-])c1` (configuration not stated): the activity change, negative = inhibition is inactive: -7.19%.

On to `CC(C)c1ccc(NC2CCN(C(=O)OC(C)(C)C)CC2)cc1`, for which the activity change, negative = inhibition is inactive: -0.303%.

For the compound `COc1cc(OC)c(C(=O)NCC2(N(C)C)CCCCC2)cc1OC`, the activity change, negative = inhibition is inactive: -5.78%.

For the compound `O=C(NCC1(N2CCOCC2)CCCCC1)c1cc(F)c(F)cc1Cl`, the activity change, negative = inhibition was inactive: 0.254%.

For `CN1CCC(Nc2cccc(F)c2)CC1`, the activity change, negative = inhibition was inactive: -0.487%.

For `COc1ccc2c(c1O)-c1c(O)c(OC)cc3c1[C@H](C2)[N+](C)(C)CC3.O=[N+]([O-])c1cc([N+](=O)[O-])c([O-])c([N+](=O)[O-])c1[O-]`, the activity change, negative = inhibition was inactive: -4.82%.

In the case of `O=C(NCC1(N2CCCCC2)CCCCC1)c1cncc(Br)c1`, the activity change, negative = inhibition is inactive: -2%.

As for `O=C(OC1CN2CCC1CC2)c1ccc([N+](=O)[O-])cc1` (configuration not stated), the activity change, negative = inhibition was inactive: -2.11%.

Consider `CCCOc1ccc(C(=O)NCC2(N(C)C)CCCCC2)cc1OC`, for which the activity change, negative = inhibition is inactive: -2.24%.

For the compound `O=C(NCC1(N2CCCCC2)CCCCC1)c1ccc(=O)[nH]c1`, the activity change, negative = inhibition is inactive: -3.76%.

As to `O=C(NCC1(N2CCCCC2)CCCCC1)c1cccs1`, the activity change, negative = inhibition was inactive: -1.02%.

`COc1ccc(C(=O)NCC2(N3CCCCC3)CCCCC2)cc1`: the activity change, negative = inhibition was inactive: 0.327%.

On to `CC(C)(C)OC(=O)N1CCC(N(C(=O)c2ccccc2)c2ccc(F)cc2)CC1`, for which the activity change, negative = inhibition is inactive: -6.55%.

For the compound `COc1ccc(C(=O)NCC2(N3CCCCC3)CCCCC2)c(OC)c1OC`, the activity change, negative = inhibition was inactive: -8.41%.

Consider `CSc1ccccc1C(=O)NCC1(N2CCCCC2)CCCCC1`, for which the activity change, negative = inhibition is inactive: -13.1%.

Take `Cc1cccc(NC2(C#N)CCN(Cc3ccccc3)CC2)c1`: the activity change, negative = inhibition was inactive: -0.681%.

With `O=C(NCC1(N2CCOCC2)CCCCC1)c1cc2ccccc2o1`, the activity change, negative = inhibition is inactive: -0.0013%.

Turning to `O=C(NCC1(N2CCCCC2)CCCCC1)c1ccc(Cl)nc1`, the activity change, negative = inhibition was inactive: -9.08%.

Regarding `Cc1cc(C)cc(N(C(=O)c2ccccc2)C2CCN(C(=O)OC(C)(C)C)CC2)c1`, the activity change, negative = inhibition is inactive: -4.47%.

`CCOC(=O)N1CCC(Nc2ccc(OC)cc2)CC1`: the activity change, negative = inhibition was inactive: -0.633%.

Take `O=C(NCC1(N2CCCCC2)CCCCC1)c1ccc(Cl)s1`: the activity change, negative = inhibition is inactive: -0.89%.

In the case of `N#CC1(Nc2ccccc2)CCN(Cc2ccccc2)CC1`, the activity change, negative = inhibition was inactive: -4.55%.

For the compound `O=C(OC1CN2CCC1CC2)C1c2ccccc2Oc2ccccc21` (configuration not stated), the activity change, negative = inhibition was inactive: -2.24%.

Consider `COc1ccc(Cl)cc1C(=O)NCC1(N2CCOCC2)CCCCC1`, for which the activity change, negative = inhibition was inactive: 1.15%.

Take `O=C1C(O)=C([N+](=O)[O-])C(=O)C(O)=C1[N+](=O)[O-]`: the activity change, negative = inhibition was inactive: -7.32%.

On to `CCOc1ccc(C)cc1CN(CCCl)CCCl`, for which the activity change, negative = inhibition was inactive: -2.66%.

With `O=C1CCN(Cc2ccccc2)CC1`, the activity change, negative = inhibition was inactive: -2.62%.

In the case of `CCCCOc1ccc(C(=O)NCC2(N3CCOCC3)CCCCC2)cc1`, the activity change, negative = inhibition was inactive: -0.16%.

As for `O=P1(N(CCCl)CCCl)SCCCS1`, the activity change, negative = inhibition was inactive: -7.14%.

Take `O=C(NCC1(N2CCCCC2)CCCCC1)c1ccc(F)cc1`: the activity change, negative = inhibition is inactive: -0.801%.

For the compound `CCOC(=O)N1CCC(Nc2ccc(F)cc2)CC1`, the activity change, negative = inhibition was inactive: -1.42%.

Regarding `COc1ccc(NC2CCN(CCc3ccccc3)CC2)c(OC)c1`, the activity change, negative = inhibition is inactive: -0.621%.

On to `CCOC(=O)N1CCC(Nc2cccc(C)c2)CC1`, for which the activity change, negative = inhibition was inactive: -0.959%.

As to `COc1cc(C(=O)NCC2(N(C)C)CCCCC2)ccc1OC(F)F`, the activity change, negative = inhibition is inactive: -6.13%.
